Source: paper PMC12990809
The direction of at least one scale is not stated here. Tags and fusion partners may be left off the protein sequences shown.

Experiments:
[1] = target: T1, LmjF.36.5420 (Leishmania major) (UniProt Q4Q0L9); experiment: pull-down; conditions: 20 nM protein, 1.5 uM RNA pool; 20 mM HEPES pH 7.8, 70 mM KCl, 10 mM NaCl, 10% glycerol, 2 mM DTT, 0.1 ug/uL BSA; 30 min, 4 C; purified recombinant protein; protein details: N-terminal GST (kept); only the motif is given
T1 sequence: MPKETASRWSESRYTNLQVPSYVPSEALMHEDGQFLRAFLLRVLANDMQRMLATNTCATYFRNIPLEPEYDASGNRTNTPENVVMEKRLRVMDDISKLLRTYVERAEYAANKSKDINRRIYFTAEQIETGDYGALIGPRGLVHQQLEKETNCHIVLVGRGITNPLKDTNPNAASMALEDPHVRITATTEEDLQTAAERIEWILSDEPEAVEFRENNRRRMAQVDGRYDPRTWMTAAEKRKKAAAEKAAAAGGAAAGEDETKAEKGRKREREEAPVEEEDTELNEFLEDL

[2] = target: T2, LmjF.17.0550 (Leishmania major) (UniProt Q4QED9); experiment: pull-down; conditions: 20 nM protein, 1.5 uM RNA pool; 20 mM HEPES pH 7.8, 70 mM KCl, 10 mM NaCl, 10% glycerol, 2 mM DTT, 0.1 ug/uL BSA; 30 min, 4 C; purified recombinant protein; protein details: N-terminal GST (kept); only the motif is given
T2 sequence: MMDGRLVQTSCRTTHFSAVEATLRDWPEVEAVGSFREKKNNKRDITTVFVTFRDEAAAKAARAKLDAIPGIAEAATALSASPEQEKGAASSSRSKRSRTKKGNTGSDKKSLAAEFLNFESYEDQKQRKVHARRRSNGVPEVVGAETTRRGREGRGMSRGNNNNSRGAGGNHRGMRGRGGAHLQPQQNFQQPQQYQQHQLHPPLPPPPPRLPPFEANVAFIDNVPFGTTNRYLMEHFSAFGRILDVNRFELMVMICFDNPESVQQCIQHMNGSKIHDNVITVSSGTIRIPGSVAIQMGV

ACAACUA [RNAcompete motif RNCMPT00692]
binding signal (z-score (mean of top ten 7-mers)) [1]: 5.55

GCGCGG [RNAcompete motif RNCMPT00615]
binding signal (z-score (mean of top ten 7-mers)) [2]: 4.66
